Measured values from several laboratories, pooled; numbers as filed in NIAID ChemDB.

Common to all: tests on isolated targets; agent: HIV-1; protein: Reverse transcriptase; endpoint: inhibition

Rows are shuffled and stem from different studies. An empty or dashed field is not shown. Percent inhibition refers to the dose given; in toxicity tests it is the harm to the cells.

structure,tested at,method,strain or isolate,result
CCN1C(=O)c2ccnnc2N(C2CC2)c2ccccc21,33 µM,-,-,2%
O=C(O)c1cc(NS(=O)(=O)c2cccc3c(S(=O)(=O)Nc4cc(C(=O)O)c(O)c(S(=O)(=O)O)c4)cccc23)cc(S(=O)(=O)O)c1O,50 µM,RT activity,-,54%
CN1C(=O)c2cc(Cl)nnc2N(C2CC2)c2ncccc21,33 µM,ELISA,-,20%
CCCCCCCCCCCCCCCC(=O)Nc1ccc(S(=O)(=O)O)c2ccccc12,50 µM,RT activity,-,2%
N#CC1C=Cc2ccccc2N1C(=O)Oc1ccccc1,50 µM,nucleotide incorporation,-,48.7%
O=S(=O)(O)c1cc(S(=O)(=O)O)c2cc(NS(=O)(=O)c3ccc(-c4ccc(S(=O)(=O)Nc5ccc6cc(S(=O)(=O)O)cc(S(=O)(=O)O)c6c5)cc4)cc3)ccc2c1,50 µM,RT activity,-,72%
C=CCN1C(=O)c2ccnnc2Oc2ccc(C)cc21,330 µM,ELISA,-,79%
CCN1C(=O)c2cc(Cl)nnc2N(CC)c2ccccc21,330 µM,-,-,3%
O=C1NC(c2c[nH]c3ccccc23)=C/C1=C1\C(=O)NC2C=CC=CC12,1000 µM,RT activity / ELISA,-,17.68%
O=C(NCCc1ccccc1)Nc1nc2ccccc2s1,1 µg/mL,nucleotide incorporation,-,36%
CC(=O)OC(C)CCCCC[C@H]1CCCCCC[C@@H](C)NC(N)=[NH+]1.F[B-](F)(F)F,40 µM,RT activity / radiometric,-,0.6%
CCCN1C(=O)c2ccnnc2N(C2CC2)c2ccc(C)cc21,33 µM,-,-,19%
CCOC(=O)CN1C(=O)c2ccnnc2Oc2c(C)cc(C)cc21,330 µM,ELISA,-,55%
CCCCCCCCCCCCCCCC(=O)Nc1ccc(S(=O)(=O)O)c2cccc(S(=O)(=O)O)c12,50 µM,RT activity,-,97.2%
CCOC(=O)CN1C(=O)c2ccnnc2Oc2ccc(C)cc21,33 µM,ELISA,-,26%
O=S(=O)(O)c1cccc2ccc(OS(=O)(=O)c3cccc4c(S(=O)(=O)Oc5ccc6cccc(S(=O)(=O)O)c6c5)cccc34)cc12,50 µM,RT activity,-,75%
CCCN1C(=O)c2cc(Cl)nnc2N(CCC)c2ccc(C)cc21,330 µM,-,-,6%
CCCCCCCC(=O)OCCCC[C@H]1CCCCCC[C@@H](C)NC(N)=[NH+]1,10 µM,RT activity / radiometric,-,16.5%
CCCOC(=O)Nc1ccc2c(c1)C=CC(C#N)N2C(=O)OCCC,50 µM,nucleotide incorporation,-,≤30%
Nc1ccc(S(=O)(=O)O)c2ccccc12,50 µM,RT activity,-,12%
CCCCCC(=O)OCCCC[C@H]1CCCCCC[C@@H](C)NC(N)=[NH+]1,10 µM,RT activity / radiometric,-,2.2%
Cc1ccnc(NC(=O)NCCc2ccccc2)n1,1 µg/mL,nucleotide incorporation,-,15%
O=C(CCCCCCCCC(=O)Nc1ccc(S(=O)(=O)O)c2cccc(S(=O)(=O)O)c12)Nc1ccc(S(=O)(=O)O)c2cccc(S(=O)(=O)O)c12,50 µM,RT activity,-,46%
CN1C(=O)c2cc(Cl)nnc2N(C2CC2)c2ccccc21,33 µM,-,-,56%
CCCOC(=O)N1c2ccccc2C=CC1C#N,50 µM,nucleotide incorporation,-,81.2%
O=C(NCCc1ccccc1)Nc1ccccc1,0.1 µg/mL,nucleotide incorporation,-,1%
C=CCOC(=O)N1c2ccccc2C=CC1C#N,50 µM,nucleotide incorporation,-,≤30%
O=C(NCCc1ccccc1)Nc1nc2ccc(F)cc2s1,1 µg/mL,nucleotide incorporation,-,38%
CCCN1C(=O)c2cc(Cl)nnc2Oc2ccc(OC)cc21,33 µM,ELISA,-,23%
Cc1nnc(NC(=O)NCCc2ccccc2)s1,1 µg/mL,nucleotide incorporation,-,21%
C=CCN1C(=O)c2cc(Cl)nnc2N(C2CC2)c2ccccc21,330 µM,-,-,57%
O=C(NCCc1ccccc1)Nc1ncccn1,10 µg/mL,nucleotide incorporation,-,6%
CC(CCCCC[C@H]1CCCCCC[C@@H](C)NC(N)=[NH+]1)O[Si](c1ccccc1)(c1ccccc1)C(C)(C)C.F[B-](F)(F)F,10 µM,RT activity / radiometric,-,47.9%
Cc1cc(C)c2c(c1)N(CC(C)C)C(=O)c1ccnnc1O2,330 µM,ELISA,-,84%
CCCCCCCCCCCC(=O)OCCCC[C@H]1CCCCCC[C@@H](C)NC(N)=[NH+]1,10 µM,RT activity / radiometric,-,3.5%
N#CC1C=Cc2cc([N+](=O)[O-])ccc2N1C(=O)OCCCl,50 µM,nucleotide incorporation,-,≤30%
CN1C(=O)c2cc(Cl)nnc2N(C2CC2)c2ccccc21,33 µM,ELISA,-,56%
N#CC1C=Cc2ccccc2N1C(=O)c1cccnc1Cl,50 µM,nucleotide incorporation,-,≤30%
C/C1=C\C=C\C2(C)C=C(CO[C@H]3O[C@H](CO)[C@H](O)[C@H](O)[C@H]3O)C(C)CC23OC([O-])C(C3=O)C(O)/C=C/C2(C)C=C(C=O)C(C)CC23OC([O-])C(C3=O)C(O)/C(C)=C/C=C/C2C=C(CO[C@H]3O[C@H](CO)[C@H](O)[C@H](O)[C@H]3O)C(C)CC23OC([O-])C(C3=O)C(O)/C=C/C2(C)C=C(C=O)C(C)CC23OC([O-])C(C3=O)C1O,20 µg/mL,RT activity,IIIB,81.6%
CCCN1C(=O)c2ccnnc2Oc2c(C)cc(C)cc21,33 µM,ELISA,-,56%
CCCC(=O)OCCCC[C@H]1CCCCCC[C@@H](C)NC(N)=[NH+]1,40 µM,RT activity / radiometric,-,8.6%
CCCN1C(=O)c2cc(Cl)nnc2N(CC)c2ccc(C)cc21,330 µM,-,-,7%

The first 3 rows once more:

| structure | tested at | method | strain or isolate | result |
|---|---|---|---|---|
| CCN1C(=O)c2ccnnc2N(C2CC2)c2ccccc21 | 33 µM | - | - | 2% |
| O=C(O)c1cc(NS(=O)(=O)c2cccc3c(S(=O)(=O)Nc4cc(C(=O)O)c(O)c(S(=O)(=O)O)c4)cccc23)cc(S(=O)(=O)O)c1O | 50 µM | RT activity | - | 54% |
| CN1C(=O)c2cc(Cl)nnc2N(C2CC2)c2ncccc21 | 33 µM | ELISA | - | 20% |